Assay results: PMC5869396, “Structural Basis for the Specific Neutralization of Stx2a with a Camelid Single Domain Antibody Fragment” (2018)

Target: biotinylated rStx2aB (rStx2aB with human IgA1 hinge and biotin acceptor domain) (E. coli O157:H7 strain EDL933)

Question: For “biotinylated rStx2aB (rStx2aB with human IgA1 hinge and biotin acceptor domain)”, which stoichiometry N is on record?
Answer: 5
